The values below are quoted from earlier work in US8115046B2, “Micro encapsulation composition for hydrocarbons and detoxification of highly hazardous chemicals and substances” (dated 2012).

For this series, the system named is anthrax spores. The conditions noted are these: cited from earlier work.

Consider `OO`, for which the “concentration required for denaturation (spore kill) of anthrax spores” value is recorded as 10-20%.
